# PubChem BioAssay AID624099, ICCB-Longwood – 2012
# Assay: 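Host factors E2 relies on to silence an HPV18 LCR reporter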 (primary screen)
# System: human C33A cervical carcinoma cells (HPV-negative) stably expressing BPV1 E2 and an HPV18 LCR luciferase reporter
# Reagent: siRNA pool against human genes, 40 nM
# Time to read-out: 72 h
# Detection: 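HPV18 LCR reporter light per well, converted to plate-wise z-scores that exclude control wells, and averaged over triplicate plates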
# Direction: mean z-score and z-score: higher = stronger reporter signal, weaker E2 silencing
# Hit rule: 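Hit if mean z-score reaches 2 and two or more of three replicate z-scores also reach 2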
# The deposit covers about 21,000 reagents; this is an unselected part. 497 of all reagents (2.4%) were called active. 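Higher z means weaker E2 silencing; only reporter increases were scored, and knock-downs that hurt cell survival may mask genuine repressor factors.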 Reagents against one gene are numbered here.
target gene,reagent,mean z-score,"z-score, replicate A","z-score, replicate B","z-score, replicate C",call
FOXJ2 (GeneID 55810),1,1.15,1.01,1.3,1.15,inactive
IGFBP5 (GeneID 3488),1,-0.78,-0.62,-0.98,-0.73,inactive
CCNE1 (GeneID 898),1,2.12,2.17,2.03,2.14,active
DDX52 (GeneID 11056),1,0.59,0.77,0.41,0.6,inactive
MORN4 (GeneID 118812),1,-0.19,0.03,-0.32,-0.26,inactive
PIK3C2B (GeneID 5287),1,-0.55,-1.06,-0.56,-0.02,inactive
CCL3L3 (GeneID 414062),1,-0.05,-0.02,0.39,-0.52,inactive
NEIL3 (GeneID 55247),1,-0.76,-0.87,-1.16,-0.26,inactive
RBM28 (GeneID 55131),1,-1.04,-1.16,-0.93,-1.02,inactive
S1PR2 (GeneID 9294),1,-0.43,-0.32,-0.43,-0.55,inactive
ZNF430 (GeneID 80264),1,-0.21,-0.08,-0.1,-0.45,inactive
TBC1D22B (GeneID 55633),1,0.09,0.08,0.27,-0.07,inactive
FSTL4 (GeneID 23105),1,0.71,0.59,0.82,0.72,inactive
MKX (GeneID 283078),1,-0.21,,0.03,-0.44,inactive
OXR1 (GeneID 55074),1,-0.26,-0.23,-0.04,-0.5,inactive
DZANK1 (GeneID 55184),1,-0.01,0.04,-0.01,-0.06,inactive
DCLK3 (GeneID 85443),1,0.72,0.75,0.57,0.83,inactive
LOC402326 (retired record) (GeneID 402326),1,0.85,1.09,0.41,1.06,inactive
C1QBP (GeneID 708),1,0.53,0.74,0.57,0.27,inactive
KRABD5 (GeneID 124411),1,0.01,-0.02,-0.16,0.23,inactive
NSMF (GeneID 26012),1,-1.5,-1.38,-1.46,-1.66,inactive
AMPD2 (GeneID 271),1,-0.68,-0.84,-0.54,-0.65,inactive
GLIPR1L1 (GeneID 256710),1,-0.9,-0.99,-0.74,-0.97,inactive
SACK1D (GeneID 81610),1,0.45,0.44,0.32,0.59,inactive
LOC100288208 (GeneID 100288208),1,-0.39,-0.48,-0.35,-0.36,inactive
TRIM69 (GeneID 140691),1,1.8,1.56,1.9,1.95,inactive
TRIM69 (GeneID 140691),2,-0.22,0.27,-0.41,-0.53,inactive
QRSL1 (GeneID 55278),1,-1.3,-1.43,-1.04,-1.45,inactive
DGAT2 (GeneID 84649),1,0.24,0.17,0.25,0.31,inactive
LINC00479 (GeneID 150135),1,1.07,1.49,0.65,1.06,inactive
SEPTIN11 (GeneID 55752),1,0.81,0.63,0.77,1.02,inactive
OPN3 (GeneID 23596),1,-0.07,-0.13,0.04,-0.12,inactive
ST8SIA3 (GeneID 51046),1,-0.29,-0.31,-0.31,-0.23,inactive
LVRN (GeneID 206338),1,0.26,0.22,0.31,1.13,inactive
NNT (GeneID 23530),1,2.82,2.23,3.22,3,active
bA395L14.13 (retired record) (GeneID 284967),1,-0.01,-0.67,0.42,0.24,inactive
CISD3 (GeneID 284106),1,1.81,2.12,1.78,1.52,inactive
BLVRB (GeneID 645),1,0.22,0.2,0.24,0.23,inactive

Continued (2 carried over from the part before).
target gene,reagent,mean z-score,"z-score, replicate A","z-score, replicate B","z-score, replicate C",call
CISD3 (GeneID 284106),1,1.81,2.12,1.78,1.52,inactive
BLVRB (GeneID 645),1,0.22,0.2,0.24,0.23,inactive
DKFZp547B139 (retired record) (GeneID 400930),1,-0.11,-0.29,0.1,-0.14,inactive
CPM (GeneID 1368),1,2.24,1.43,2.52,2.79,active
SLC16A10 (GeneID 117247),1,-1.77,-1.45,-1.56,-2.3,inactive
CLEC16A (GeneID 23274),1,-0.24,-0.47,-0.45,0.21,inactive
TPRXL (GeneID 348825),1,0.51,0.88,0.46,0.2,inactive
SGIP1 (GeneID 84251),1,0.42,0.58,0.4,0.27,inactive
TLX3 (GeneID 30012),1,1.48,1.22,1.8,1.43,inactive
TPH2 (GeneID 121278),1,-1.03,-0.84,-1.24,-1.02,inactive
HLCS (GeneID 3141),1,0.61,0.52,0.31,1,inactive
SYNCRIP (GeneID 10492),1,-0.66,-0.34,-0.45,-1.2,inactive
DDR1 (GeneID 780),1,0.06,-0.04,0.28,-0.06,inactive
ACBD5 (GeneID 91452),1,-0.23,-0.35,-0.15,-0.19,inactive
PHOSPHO1 (GeneID 162466),1,0.01,-0.37,-0.5,0.9,inactive
RAP1GAP (GeneID 5909),1,0.71,0.73,0.62,0.78,inactive
HTR1D (GeneID 3352),1,0.18,0.28,0.09,0.16,inactive
TMSB10 (GeneID 9168),1,-0.73,-0.45,-1.04,-0.7,inactive
TGFBRAP1 (GeneID 9392),1,0.36,0.39,0.51,0.19,inactive
CHD4 (GeneID 1108),1,-0.81,-0.78,-0.81,-0.85,inactive
GREB1 (GeneID 9687),1,-0.84,-0.71,-1.15,-0.67,inactive
